Data source: PubChem BioAssay AID1224833 (University of Georgia, 2016)
Assay: 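Human genes whose knock-down alters rotavirus replication in monkey cells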 (primary screen). Cells: monkey MA104 kidney cells. Reagents: siRNA pool against human genes, 50 nM. Timing: 48 h knock-down before infection; read 24 h after infection. Challenge: infection with rotavirus strain RV3 two days after transfection; infectious dose for this stage not given. Measured: 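Rotavirus antigen per well by fluorescent immunoassay, normalised to non-targeting control wells on each plate and given as a standard z-score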. Reading the numbers: z-score vs non-targeting control: higher = more rotavirus replication than with non-targeting control. Call rule: In these data the active calls have z-score vs non-targeting control at about -1 or lower, or at about 1 or higher. Calls: active = z-score beyond 1 either way; inactive = z-score within 1 of zero.
The whole screen tested about 12,000 reagents; this is a random part of them. Of all reagents, about 5,600 (46%) are marked active. 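Active calls cover z-scores past 1 in both directions, so they include lowered as well as raised rotavirus replication.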

gene | z-score vs non-targeting control | call
ARFGEF1 (GeneID 10565) | 1.77 | active
TCF25 (GeneID 22980) | -0.762 | inactive
IRF2 (GeneID 3660) | -0.636 | inactive
SLC12A8 (GeneID 84561) | 2.03 | active
COMMD2 (GeneID 51122) | -0.155 | inactive
IFIT2 (GeneID 3433) | -0.561 | inactive
SEPTIN9 (GeneID 10801) | 0.659 | inactive
SERPINA9 (GeneID 327657) | -0.349 | inactive
LHX6 (GeneID 26468) | 1.36 | active
ENPP3 (GeneID 5169) | -0.725 | inactive
CLDN4 (GeneID 1364) | -0.813 | inactive
SEC24B (GeneID 10427) | 0.296 | inactive
BBS1 (GeneID 582) | 0.758 | inactive
GINM1 (GeneID 116254) | -1.96 | active
TIPE3 (GeneID 388121) | -1.02 | active
PAX9 (GeneID 5083) | 0.831 | inactive
SINHCAF (GeneID 58516) | -0.437 | inactive
SCAF8 (GeneID 22828) | -0.337 | inactive
CNTRL (GeneID 11064) | 0.802 | inactive
OR5D18 (GeneID 219438) | -1.77 | active
ZNF202 (GeneID 7753) | -1.58 | active
GRN (GeneID 2896) | 0.494 | inactive
ELOVL7 (GeneID 79993) | 0.556 | inactive
ULBP1 (GeneID 80329) | -1.78 | active
KRT12 (GeneID 3859) | -0.825 | inactive
PSD3 (GeneID 23362) | -1.87 | active
SIGLEC7 (GeneID 27036) | 0.392 | inactive
LRRCC1 (GeneID 85444) | 3.02 | active
IDH3G (GeneID 3421) | -0.986 | inactive
IFI44L (GeneID 10964) | -1.13 | active
PCYT1A (GeneID 5130) | -1.04 | active
COX4I1 (GeneID 1327) | 1.5 | active
TESC (GeneID 54997) | -1.07 | active
CCDC68 (GeneID 80323) | -2.43 | active
ACACB (GeneID 32) | 0.932 | inactive
CYP2R1 (GeneID 120227) | -1.41 | active
ATP1B3 (GeneID 483) | 0.956 | inactive
PPY (GeneID 5539) | -0.971 | inactive
TAGAP (GeneID 117289) | -1.34 | active
RBPMS (GeneID 11030) | -0.375 | inactive
MYOZ3 (GeneID 91977) | 0.925 | inactive
PLOD1 (GeneID 5351) | -0.589 | inactive
CDC73 (GeneID 79577) | 1.15 | active
LMO3 (GeneID 55885) | 0.28 | inactive
UACA (GeneID 55075) | 0.773 | inactive
CIMIP6 (GeneID 129852) | -1.48 | active
NHLRC3 (GeneID 387921) | 2.22 | active
RIOX1 (GeneID 79697) | -0.523 | inactive
OSBPL10 (GeneID 114884) | -0.551 | inactive
CDHR2 (GeneID 54825) | -0.227 | inactive
RIGI (GeneID 23586) | -1.06 | active
TP53TG3 (GeneID 24150) | -0.755 | inactive
EHD4 (GeneID 30844) | 0.762 | inactive
TMCC3 (GeneID 57458) | 0.76 | inactive
SPATA1 (GeneID 100505741) | -1.24 | active
OR10A6 (GeneID 390093) | -0.66 | inactive
NEUROG1 (GeneID 4762) | 0.0939 | inactive
SELL (GeneID 6402) | -0.87 | inactive
REXO5 (GeneID 81691) | 0.669 | inactive
AXIN2 (GeneID 8313) | -0.493 | inactive
SEC23A (GeneID 10484) | 0.0724 | inactive
THBS1 (GeneID 7057) | -0.482 | inactive
RRBP1 (GeneID 6238) | -0.776 | inactive
ARMC10 (GeneID 83787) | -1.23 | active
EEF1A1 (GeneID 1915) | 1.12 | active
WARS1 (GeneID 7453) | -0.784 | inactive
SYT3 (GeneID 84258) | -2.14 | active
FOXD4 (GeneID 2298) | 1.2 | active
CSF1 (GeneID 1435) | 0.566 | inactive
PLP1 (GeneID 5354) | 0.9 | inactive
INSL6 (GeneID 11172) | -0.538 | inactive
TSLIG2 (GeneID 79074) | -0.808 | inactive
WDR4 (GeneID 10785) | 0.737 | inactive
C5 (GeneID 727) | 0.255 | inactive
NUDT17 (GeneID 200035) | -0.0974 | inactive
SPTLC1 (GeneID 10558) | -1.35 | active
SLC10A3 (GeneID 8273) | -0.926 | inactive
TTC39C (GeneID 125488) | 0.259 | inactive
ENPP6 (GeneID 133121) | -1.26 | active
RAB25 (GeneID 57111) | 1.4 | active
PRDM4 (GeneID 11108) | 0.739 | inactive
CENPS (GeneID 378708) | -0.247 | inactive
PSEN2 (GeneID 5664) | -1.81 | active
ADGRE3 (GeneID 84658) | 1.32 | active
RPS3A (GeneID 6189) | -0.928 | inactive
PLCG2 (GeneID 5336) | -3.34 | active
TTC4 (GeneID 7268) | 0.621 | inactive
CCDC198 (GeneID 55195) | -0.304 | inactive
SACK1A (GeneID 84985) | 1.38 | active
LCP1 (GeneID 3936) | -0.647 | inactive
TXNDC9 (GeneID 10190) | -0.971 | inactive
ANXA13 (GeneID 312) | 0.0086 | inactive
CLDN1 (GeneID 9076) | 0.284 | inactive
NAV2 (GeneID 89797) | -0.469 | inactive
NOXO1 (GeneID 124056) | -1.05 | active
MRAP2 (GeneID 112609) | -0.434 | inactive
ELOC (GeneID 6921) | -1.3 | active
UBIAD1 (GeneID 29914) | -1.14 | active
SAXO1 (GeneID 158297) | 0.621 | inactive
GMNN (GeneID 51053) | -0.644 | inactive
GTPBP6 (GeneID 8225) | -0.927 | inactive
DELEC1 (GeneID 50514) | -1.05 | active
ESPN (GeneID 83715) | 0.892 | inactive
UBXN1 (GeneID 51035) | -2.33 | active
BRWD1 (GeneID 54014) | -1.35 | active
TBC1D8B (GeneID 54885) | -1.5 | active
FOXD4L5 (GeneID 653427) | -2.06 | active
HEXIM1 (GeneID 10614) | -1.86 | active
GOLT1A (GeneID 127845) | -0.708 | inactive
FHL1 (GeneID 2273) | -1.78 | active

No new results follow: 18 of the entries above.
gene | z-score vs non-targeting control | call
PPY (GeneID 5539) | -0.971 | inactive
TAGAP (GeneID 117289) | -1.34 | active
RBPMS (GeneID 11030) | -0.375 | inactive
MYOZ3 (GeneID 91977) | 0.925 | inactive
PLOD1 (GeneID 5351) | -0.589 | inactive
CDC73 (GeneID 79577) | 1.15 | active
LMO3 (GeneID 55885) | 0.28 | inactive
UACA (GeneID 55075) | 0.773 | inactive
CIMIP6 (GeneID 129852) | -1.48 | active
NHLRC3 (GeneID 387921) | 2.22 | active
RIOX1 (GeneID 79697) | -0.523 | inactive
OSBPL10 (GeneID 114884) | -0.551 | inactive
CDHR2 (GeneID 54825) | -0.227 | inactive
RIGI (GeneID 23586) | -1.06 | active
TP53TG3 (GeneID 24150) | -0.755 | inactive
EHD4 (GeneID 30844) | 0.762 | inactive
TMCC3 (GeneID 57458) | 0.76 | inactive
SPATA1 (GeneID 100505741) | -1.24 | active
